Pooled drug test results. Numbers come from NIAID ChemDB, via PubChem.

All rows: tests in culture; agent: Mycobacterium tuberculosis

Conditions beyond the fields shown may differ between rows. MIC bound comes from a single tested concentration. ECn is the concentration giving n% inhibition of infection, replication or growth. MIC50, MIC90 and the like: level of inhibition, or share of isolates inhibited. Percent inhibition refers to the dose given; in toxicity tests it is the harm to the cells. An empty or dashed field is not shown.

smiles,read by,dose,strain or isolate,setting,cell line,changes,read-out,result
Cc1cc(N2C(=O)CCSC2=S)ccc1Cl,BACTEC,-,H37Rv,-,-,-,MIC bound,>12.5 µg/mL
CC(C)N=c1cc2n(-c3ccc(Cl)cc3)c3ccccc3nc-2cc1Nc1ccc(Cl)cc1,-,-,7357/1998,-,-,-,MIC,0.13 µM
c1ccc(-c2cc3ccc(N4CCNCC4)nc3nc2N2CCCCC2)cc1,-,6.25 µg/mL,H37Rv,-,-,-,inhibition,89%
CCCCCN1C(=O)c2ccnnc2Oc2ccccc21,BACTEC,12.5 µg/mL,H37Rv,-,-,-,inhibition,0%
CC[C@@H](CO)NCCN[C@@H](CC)CO,resazurin / fluorescence,-,H37Rv,-,-,-,EC50,3.45 µM
CC(=O)c1c(C)[nH]c(C(=O)N/N=C/c2cccc([N+](=O)[O-])c2)c1C,resazurin,6.25 µg/mL,H37Rv,-,-,-,inhibition,21%
NNC(=O)c1ccncc1,-,-,PR503,-,-,-,MIC,0.63 µg/mL
O=c1ccc2c(-c3ccccc3)cc(N3CCOCC3)nc2[nH]1,-,6.25 µg/mL,H37Rv,-,-,-,inhibition,0%
CCOC(=O)c1ccc2c(c1)nc(-c1ccc(OC(F)(F)F)cc1)n2CCN1CCCC1=O,resazurin / fluorescence,-,H37Rv,-,-,-,EC90,>100 µM
Cn1c(=O)c(=O)n(C)c2cc(Cl)c(Cl)cc21,-,-,H37Rv,-,-,-,MIC bound,>6.25 µg/mL
CCn1cc(C(=O)O)c(=O)c2cc(F)c(N3CCN(CC(=O)c4ccc(OC)cc4)CC3)cc21,-,-,H37Rv,-,-,-,MIC,>6.25 µg/mL
COC(=O)C(=O)C(C)C(=O)C(C)c1nc2n(c1O)C(=N)N=N2,resazurin,6.25 µg/mL,H37Rv,-,-,-,inhibition,-2%
COc1ccc(/C(CN2CCN(c3cc4c(cc3F)c(=O)c(C(=O)O)cn4C3CC3)CC2)=N\O)cc1,-,-,H37Rv,-,-,-,MIC,>6.25 µg/mL
Cc1c(N2CC3CCCNC3C2)c(F)cc2c(=O)c(C(=O)O)cn(C3CC3)c12,-,-,51 (RFP-resistant),-,-,-,MIC,1.56 µg/mL
NC1CCN(c2nc3c(cc2F)c(=O)c(C(=O)O)cn3-c2ccc(F)cc2F)C1,-,-,ATCC 35826,-,-,-,MBC,8 µg/mL
CCOC(=O)C(=O)C1C(=O)N(C)C2(C)CC1c1ccccc1O2,BACTEC,-,H37Rv,-,-,-,MIC bound,>12.5 µg/mL
CCOC(=O)c1ccc2c(c1)nc(-c1ccc(C(F)(F)F)cc1)n2CCN1CCCC1=O,resazurin / fluorescence,-,H37Rv,-,-,-,MIC,>100 µM
Cc1ccc(Cn2nnc(-c3cc([N+](=O)[O-])cc([N+](=O)[O-])c3)n2)cc1,-,-,234/2005,21 d,-,-,MIC,0.125 µM
NC(=O)c1cnccn1,-,-,H3652 (niacin-negative),-,-,-,MIC,1024 µg/mL
COc1ccc2c(-c3ccccc3)cc(N3CCNCC3)nc2n1,-,6.25 µg/mL,H37Rv,-,-,-,inhibition,85%
Nc1ccc(C(=O)N/C(=C\c2cccc([N+](=O)[O-])c2)c2nc3c4c(ccc3[nH]2)C(=O)c2ccccc2C4=O)cc1,resazurin,-,H37Rv,-,-,-,MIC bound,>6.25 µg/mL
Cc1ccc2c(c1)Oc1nnc(Cl)cc1C(=O)N2Cc1ccccc1,BACTEC,-,H37Rv,-,-,-,EC50,<12.5 µg/mL
COc1ccc(CN2C(=O)C3(CCN(CC4CC4)CC3)c3ccccc32)cc1,resazurin,-,H37Rv,-,-,-,MIC,50 µM
Nc1cccc2c1C(=O)c1ccc(C(=O)O)cc1C2=O,BACTEC,12.5 µg/mL,H37Rv,-,-,-,inhibition,5%
NC(=O)c1cnccn1,-,-,Isolate K10437,-,-,-,MIC,>500 µg/mL
CC1(C)S[C@@H]2[C@H](NC(=O)[C@H](N)c3ccccc3)C(=O)N2[C@H]1C(=O)O,-,-,BIE,-,-,-,MIC,92 µM
CN[C@@H]1[C@@H](O)[C@@H](O[C@@H]2[C@@H](O)[C@H](O[C@H]3O[C@H](CN)CC[C@H]3N)[C@@H](N)C[C@H]2N)OC[C@]1(C)O,-,-,Praha 4,-,-,-,MIC,0.52 µM
COc1cc2c(c3c1OC(C)(C)C=C3)c(=O)c1ccoc1n2C,-,6.25 µg/mL,H37Rv,-,-,-,inhibition,5%
C[C@H]1C[C@H](N)CN1c1cc2c(cc1F)c(=O)c(C(=O)O)cn2-c1ccc(F)cc1F,-,-,Drug-resistant,-,-,-,MIC50,2 µg/mL
CC(C)(C)C1CCc2c(sc3nc(SCc4cc(-c5ccccc5)on4)nc(N)c23)C1,MTT / visual reading,-,H37Rv,-,-,-,MIC,>200 µg/mL
CCn1cc(C(=O)O)c(=O)c2cc(F)c(N3CCN(CC(=O)c4ccccc4)CC3)nc21,-,6.25 µg/mL,H37Rv,-,-,-,inhibition,52%
C=CCCNC(=S)[S-].[Na+],BACTEC,128 µg/mL,H37Rv,-,-,-,inhibition,100%
C[C@@H]1Cn2cc(C(=O)O)c(=O)c3cc(F)c(N4CCN(/C(N)=N/C(N)=NCCCCCCN=C(N)/N=C(\N)N5CCN(c6c(F)cc7c(=O)c(C(=O)O)cn8c7c6O[C@@H](C)C8)CC5)CC4)c(c32)O1,broth dilution,-,ATCC 35820,-,-,-,MIC,0.625 µg/mL
NCC[C@H](O)C(=O)N[C@@H]1C[C@H](N)[C@@H](O[C@H]2O[C@H](CN)[C@@H](O)[C@H](O)[C@H]2O)[C@H](O)[C@H]1O[C@H]1O[C@H](CO)[C@@H](O)[C@H](N)[C@H]1O,-,-,3R,-,-,-,MIC,2.5 µg/mL
OC(c1cc(-c2ccc(Cl)cc2)nc2c(Cl)cccc12)C1CCCCN1,resazurin,-,H37Rv,-,-,-,MIC bound,<6.25 µg/mL
CCOC(=O)c1ccc2c(c1)nc(-c1ccc(C(=O)O)cc1)n2CCN1CCCOC1,resazurin / fluorescence,-,H37Rv,-,-,-,EC50,>100 µM
Cc1csc(CSc2nc(N)c3c4c(sc3n2)CC(C(C)(C)C)CC4)n1,MTT / visual reading,-,H37Rv,-,-,-,MIC,50 µg/mL
O=C(CN1CCN(c2cc3c(cc2F)c(=O)c(C(=O)O)cn3C2CC2)CC1)c1ccc(Br)cc1,-,-,H37Rv,-,VERO,-,EC50,<6.25 µg/mL
COc1ccc(-c2noc(C3=CC4(CCN(CC(=O)O)CC4)c4ccccc43)n2)cc1,resazurin,-,H37Rv,-,-,-,MIC,>100 µM
CCOC(=O)c1ccc2c(c1)nc(-c1ccc(N(C)C)cc1)n2CCN1CCCC1=O,resazurin / fluorescence,-,H37Rv,-,-,-,EC90,>100 µM
CN(C)CCCN1c2ccccc2Sc2ccc(Cl)cc21,-,-,Isolate B drug-susceptible,-,-,-,MIC,10 µg/mL
COc1ccc(-c2noc(C3=CC4(CCN(Cc5nc(C)no5)CC4)c4ccccc43)n2)cc1,resazurin,-,H37Rv,-,-,-,MIC,50 µM
CCN(CC)CCNc1ccc2nc(C)n3c4ccc(O)cc4c(=O)c1c23.Cl,-,-,H37Rv,-,VERO,-,MIC,12.5 µg/mL
Cc1ccc2c(c1)N(CCCC1CCCCC1)C(=O)c1cc(Cl)nnc1O2,BACTEC,12.5 µg/mL,H37Rv,-,-,-,inhibition,8%
COc1cc(/C=C/c2ccc(OC)c(OC)c2)oc(=O)c1,BACTEC,-,H37Rv,-,-,-,MIC bound,>12.5 µg/mL
O=C(O)c1cnccn1,-,-,M6669,-,-,-,MIC,480 µg/mL
CCC1CN(c2c(F)cc3c(=O)c(C(=O)O)cn([C@@H]4C[C@@H]4F)c3c2OC)CCN1,-,-,45 (RFP-resistant),-,-,-,MIC,4 µg/mL
O=C(O)c1cn(C2CC2)c2cc(N3CCN(C/C(=N/O)c4ccc(F)cc4)CC3)c(F)cc2c1=O,-,-,H37Rv,-,VERO,-,EC50,<6.25 µg/mL
CC(=O)NC[C@H]1CN(c2ccc(N3CCOCC3)c(F)c2)C(=O)O1,-,-,4R,-,-,-,MIC,0.5 µg/mL
CO[C@H]1/C=C/O[C@@]2(C)Oc3c(C)c(O)c4c(O)c(c5c(c4c3C2=O)NC2(CCN(CC(C)C)CC2)N=5)=NC(=O)/C(C)=C\C=C\[C@H](C)[C@H](O)[C@@H](C)[C@@H](O)[C@@H](C)[C@H](OC(C)=O)[C@@H]1C,-,-,13 (rifampicin-susceptible),-,-,-,MIC,≤0.062 µg/mL
Nc1ccc2c(-c3ccccc3)cc(N3CCOCC3)nc2n1,-,6.25 µg/mL,H37Rv,-,-,-,inhibition,47%
CC(NC(=O)OCc1ccccc1)C(=O)NC(CO)C(N)=O,BACTEC,12.8 µg/mL,H37Rv,-,-,-,inhibition,4%
CCOC(=O)c1ccc2c(c1)nc(-c1ccc(Br)cc1)n2CCN1CCCOC1,resazurin / fluorescence,-,H37Rv,-,-,-,MIC,>100 µM
CC(=O)Oc1cc2nc3ccccc3nc2cc1N(C)C,BACTEC,-,H37Rv,-,-,-,MIC bound,≤12.5 µg/mL
O=c1[nH]c2c([N+](=O)[O-])cccc2c(O)c1N=Nc1ccc(Cl)cc1,resazurin,6.25 µg/mL,H37Rv,-,-,-,inhibition,61%
COC1/C=C\C=C(/C)C(=O)Nc2cc3nc4ccc(Br)cc4oc-3c(c2=O)CC(C)CC(OC)C(O)C(C)/C=C(\C)C1OC(N)=O,-,-,CS-R,-,-,-,MIC,>12.5 µg/mL
CC(C)(C)C1CCc2c(sc3nc(SCC(=O)OCC4CCCCC4)nc(N)c23)C1,MTT / visual reading,-,H37Rv,-,-,-,MIC,0.78 µg/mL
CC(=O)c1c(C)[nH]c(C(=O)N/N=C/c2ccc([N+](=O)[O-])cc2)c1C,resazurin,6.25 µg/mL,H37Rv,-,-,-,inhibition,32%
Nc1ccc2c(-c3ccccc3)cc(N3CCN(c4ccccc4)CC3)nc2n1,-,-,H37Rv,-,-,-,MIC,>6.25 µg/mL
CN[C@@H]1[C@H](O[C@H]2[C@H](O[C@H]3[C@H](O)[C@@H](O)[C@H](N=C(N)N)[C@@H](O)[C@@H]3N=C(N)N)O[C@@H](C)[C@]2(O)C=O)O[C@@H](CO)[C@H](O)[C@H]1O,turbidity,-,H37Rv,-,-,Spiroindene-resistant,MIC,1 µM
O=c1ccc2c(-c3ccccc3)cc(N3CCCCC3)nc2[nH]1,-,-,H37Rv,-,-,-,MIC,>6.25 µg/mL
CC1COc2c(N3CCN(C)CC3)c(F)cc3c(=O)c(C(=O)O)cn1c23,-,-,DRUG-SUS,-,-,-,MIC90,0.5 µg/mL
Cc1cnc(CSc2nc(N)c3c4c(sc3n2)CC(C(C)(C)C)CC4)o1,MTT / visual reading,-,H37Rv,-,-,-,MIC,12.5 µg/mL
COc1ccc(-c2noc(C3=CC4(CCN(CC5CCCO5)CC4)c4ccccc43)n2)cc1,resazurin,-,18b+,-,-,Drug-resistant,MIC,0.78 µM
O=c1oc2ccc3ccccc3c2c(O)c1N=Nc1ccccc1,resazurin,6.25 µg/mL,H37Rv,-,-,-,inhibition,62%
CCOC(=O)C(Sc1nc(N)c2c3c(sc2n1)CC(C(C)(C)C)CC3)C(C)C,MTT / visual reading,-,H37Rv,-,-,-,MIC,200 µg/mL
CCCCCCN1C(=O)c2ccnnc2Oc2ccccc21,BACTEC,-,H37Rv,-,-,-,EC50,>12.5 µg/mL
CCOC(=O)c1ccc2c(c1)nc(-c1ccc([N+](=O)[O-])cc1)n2CCN1CCCC1=O,resazurin / fluorescence,-,H37Rv,-,-,-,EC50,>100 µM
Cc1cc2c(=O)c3ccccc3oc2c(C(=O)O)c1C,BACTEC,12.5 µg/mL,H37Rv,-,-,-,inhibition,2%
C[C@@H]1CN(c2c(F)c(N)c3c(=O)c(C(=O)O)cn(C4CC4)c3c2F)C[C@H](C)N1,-,-,ATCC 35826,-,-,-,MIC,0.06 µg/mL
C[C@@H]1CN(C(=O)C(O)(c2ccccc2)c2ccccc2)[C@@H](C)CN1c1ccccn1,BACTEC,12.5 µg/mL,H37Rv,-,-,-,inhibition,4%
CC1CN(c2cc3c(cc2F)c(=O)c(C(=O)O)cn3-c2ccc(F)cc2F)CCN1,-,-,DRUG-SUS,-,-,-,MBC90,4 µg/mL
Cc1ccc(-c2noc(C3=CC4(CCN(CC5CCCO5)CC4)c4ccccc43)n2)cn1,resazurin,-,19000,-,-,Rifampicin-resistant,MIC,0.78 µM
CCCCCCCCCC1=C(O)C(=O)C(C)=C(O)C1=O,BACTEC,-,H37Rv,-,-,-,MIC bound,≤128 µg/mL
Cc1cc(-c2cc3c(cc2F)c(=O)c(C(=O)O)cn3C2CC2)cc(C)n1,-,-,H37Rv,-,-,-,MIC,4 µg/mL
CCOC(=O)c1ccc2c(c1)nc(-c1ccc(OC)cc1)n2CCN1CCCC1=O,resazurin / fluorescence,-,H37Rv,-,-,-,EC50,>100 µM
Cc1ccc(S(=O)(=O)NC(=S)S)cc1,BACTEC,128 µg/mL,H37Rv,-,-,-,inhibition,77%
NC(=O)c1cnc(Cl)cn1,-,-,VA 205,-,-,-,MIC,32 µg/mL
Cc1c(N2C[C@@H](N)C3(CC3)C2)c(F)cc2c(=O)c(C(=O)O)cn([C@@H]3C[C@@H]3F)c12,-,-,45 (RFP-resistant),-,-,-,MIC,0.78 µg/mL
CC(=O)Nc1cc2c(s1)CCC1CC(=O)NN=C21,resazurin,6.25 µg/mL,H37Rv,-,-,-,inhibition,9%
CO[C@H]1/C=C/O[C@@]2(C)Oc3c(C)c(O)c4c(O)c(c(/C=N/N5CCN(C6CCCC6)CC5)c(O)c4c3C2=O)NC(=O)/C(C)=C\C=C\[C@H](C)[C@H](O)[C@@H](C)[C@@H](O)[C@@H](C)[C@H](OC(C)=O)[C@@H]1C,-,-,L215,-,-,-,MIC,0.05 µg/mL
C[n+]1c(-c2ccc(/C=N/NC(=O)c3ccc(C(=O)N/N=C/c4ccc(-c5cn6ccccc6[n+]5C)cc4)nc3)cc2)cn2ccccc21.Cc1ccc(S(=O)(=O)[O-])cc1.Cc1ccc(S(=O)(=O)[O-])cc1,BACTEC,-,H37Rv,-,-,-,MIC,≥12.5 µg/mL
CCN1CCN(c2cc(-c3ccccc3)c3ccc(=O)[nH]c3n2)CC1,-,6.25 µg/mL,H37Rv,-,-,-,inhibition,29%